Measured values from several laboratories, pooled; numbers as filed in NIAID ChemDB.

All rows: growth or infection tests; species: Herpes simplex virus 1; measure: inhibition

Percent inhibition refers to the dose given; in toxicity tests it is the harm to the cells. Conditions beyond the fields shown may differ between rows.

O=C(NNCc1cccc(O)c1O)c1ccccc1O ; dose: 0.65 µM ; read by: PCR ; cell line: HFF ; strain or isolate: KOS ; result: 90%
O=c1[nH]c(=O)n([C@@H]2O[C@H](CO)[C@@H](O)[C@@H]2O)cc1/C=C/Br ; dose: 1 µM ; read by: plaque count ; cell line: VERO ; strain or isolate: C42 ; result: 80%
COc1cccc2c1C(=O)c1c(O)c3c(c(O)c1C2=O)C[C@@](O)(C(C)=O)C[C@@H]3O[C@H]1C[C@H](N(C)C)[C@H](O)[C@H](C)O1 ; dose: 1 µM ; read by: virus yield ; cell line: VERO ; result: 19%
O=[N+]([O-])c1ccc(C2c3c(nc(=S)[nH]c3Cl)Oc3nc(=S)[nH]c(Cl)c32)cc1 ; dose: 10 µg/mL ; cell line: VERO ; result: 70%
Nc1ncnc2nc(-c3cscn3)[nH]c12 ; dose: 10 µg/mL ; read by: plaque count ; cell line: VERO ; result: 0%
Cc1cn([C@@H]2O[C@H](CO)[C@@H](O)[C@@H]2F)c(=O)[nH]c1=O ; dose: 0.3 µg/mL ; read by: cytopathic effect ; cell line: HEP-2 ; result: ≥25%
C/C=C/c1cn([C@H]2C[C@H](O)[C@@H](CO)O2)c(=O)[nH]c1=O ; dose: 10 µM ; read by: plaque count ; cell line: VERO ; strain or isolate: KJ502 ; result: 92%
Nc1ncnc2c1ncn2[C@@H]1O[C@H](CO)[C@@H](O)[C@@H]1O ; dose: 1 µg/mL ; read by: virus yield ; cell line: HL ; strain or isolate: VL8737 ; result: 74%
Nc1nc2c(ncn2COC(CO)CO)c(=O)[nH]1 ; dose: 0.5 µM ; read by: plaque count ; cell line: WI-38 ; strain or isolate: SC16 (mutant B3) ; result: 90%
Cc1cn([C@@H]2O[C@H](CO)[C@@H](O)[C@@H]2F)c(=O)[nH]c1=O ; dose: 1 µM ; read by: virus yield ; cell line: VERO ; strain or isolate: F ; result: 79%
O=c1[nH]c(=O)n([C@H]2C[C@H](O)[C@@H](CO)O2)cc1CCCl ; dose: 0.03 µg/mL ; read by: cytopathic effect ; cell line: HEP-2 ; result: ≥25%
O=c1[nH]c(=O)n([C@H]2C[C@H](O)[C@@H](CO)O2)cc1CCCl ; dose: 0.03 µg/mL ; read by: cytopathic effect ; cell line: HEP-2 ; result: ≥25%
CCCn1cnc(=N)c2[nH]cnc21 ; dose: 6 µg/mL ; read by: plaque count ; cell line: BSC-1 ; result: 0%
CSC(=NCCc1ccccc1)Nc1ccc(Oc2ccc(/C=C(/NCCc3ccccc3)SC)cc2)cc1 ; dose: 30 µM ; read by: plaque count ; cell line: VERO ; result: >90%
Nc1nc2c(ncn2COCCO)c(=O)[nH]1 ; dose: 0.9 µg/mL ; read by: virus yield ; cell line: VERO ; strain or isolate: 7401H ; result: >99%
O=c1ccn([C@@H]2O[C@H](CO)[C@@H](O)[C@@H]2F)c(=O)[nH]1 ; dose: 5 µM ; read by: virus yield ; cell line: VERO ; strain or isolate: F ; result: 97.2%
C[C@H]1/C=C/[C@@]2(C)CC[C@@H](C(C)(C)O)[C@@H]2[C@@H](O)C[C@](C)(O)/C=C/C1 ; dose: 15 µM ; read by: cytopathic effect ; cell line: VERO ; result: 81%
CSC(=Nc1ccc([N+](=O)[O-])cc1)Nc1ccc(Oc2ccc(/C=C(/Nc3ccc([N+](=O)[O-])cc3)SC)cc2)cc1 ; dose: 5 µM ; read by: plaque count ; cell line: VERO ; result: 0%
Nc1[nH]c(=S)nc2c1C(c1ccc(Cl)cc1)c1c([nH]c(=S)[nH]c1=O)N2 ; dose: 50 µg/mL ; cell line: VERO ; result: 50%
Nc1ccn([C@H]2O[C@@H](CO)[C@H](O)[C@H]2F)c(=O)n1 ; dose: 1 µM ; read by: virus yield ; cell line: VERO ; strain or isolate: F ; result: 67%
Nc1nc2c(ncn2COC(CO)CO)c(=O)[nH]1 ; dose: 0.01 µg/mL ; read by: cytopathic effect ; cell line: HEP-2 ; result: ≥25%
Cc1ccccc1Cn1cnc(=N)c2[nH]cnc21 ; dose: 50 µg/mL ; read by: plaque count ; cell line: BSC-1 ; result: 30%
S=C(NCCc1ccccc1)Nc1ccc(Oc2ccc(NC(=S)NCCc3ccccc3)cc2)cc1 ; dose: 30 µM ; read by: plaque count ; cell line: VERO ; result: <50%
O=c1[nH]c(=O)n([C@H]2C[C@H](O)[C@@H](CBr)O2)cc1CCBr ; dose: 30 µg/mL ; read by: cytopathic effect ; cell line: HEP-2 ; result: ≥25%
Cc1cccc(Cn2cnc(=N)c3[nH]cnc32)c1 ; dose: 25 µg/mL ; read by: plaque count ; cell line: BSC-1 ; result: 0%
O=c1[nH]c(=O)n([C@H]2C[C@H](O)[C@@H](CO)O2)cc1CCO ; dose: 100 µg/mL ; read by: cytopathic effect ; cell line: HEP-2 ; result: ≥25%
N=c1ncn(Cc2cccc([N+](=O)[O-])c2)c2nc[nH]c12 ; dose: 12 µg/mL ; read by: plaque count ; cell line: BSC-1 ; result: 0%

A second listing of 4 rows from above:

{"compound": "C/C=C/c1cn([C@H]2C[C@H](O)[C@@H](CO)O2)c(=O)[nH]c1=O", "dose": "10 µM", "read by": "plaque count", "cell line": "VERO", "strain or isolate": "KJ502", "result": "92%"}
{"compound": "Nc1ncnc2nc(-c3cscn3)[nH]c12", "dose": "10 µg/mL", "read by": "plaque count", "cell line": "VERO", "result": "0%"}
{"compound": "Cc1ccccc1Cn1cnc(=N)c2[nH]cnc21", "dose": "50 µg/mL", "read by": "plaque count", "cell line": "BSC-1", "result": "30%"}
{"compound": "C[C@H]1/C=C/[C@@]2(C)CC[C@@H](C(C)(C)O)[C@@H]2[C@@H](O)C[C@](C)(O)/C=C/C1", "dose": "15 µM", "read by": "cytopathic effect", "cell line": "VERO", "result": "81%"}